Measured values from several laboratories, pooled; numbers as filed in NIAID ChemDB.

Common to all: whole-cell or culture tests; species: HIV-1; cells: MT-2; endpoint: EC50

Blank or dashed fields: not listed here. ECn: concentration that inhibits the pathogen or its effect by n%. Conditions beyond the fields shown may differ between rows.

SMILES | strain or isolate | changes | read by | conditions | value
Cc1nc2cc(N(C)C(=O)[C@H](Cc3cc(F)cc(F)c3)NC(=O)c3ccc(F)c(C(=O)N[C@@H](Cc4cc(F)cc(F)c4)C(=O)N(C)c4ccc5sc(C)nc5c4)c3)ccc2s1 | NL4-3 |  | luciferase |  | 0.18 µM
CCc1ncc(-c2ccc(OCCOc3ccccc3)cn2)c(N2CCC(C)(C)CC2)c1[C@H](OC(C)(C)C)C(=O)O | NL4-3 |  | luminescence |  | 0.0032 µM
COc1ccc(N(C)C(=O)[C@H](Cc2ccccc2)NC(=O)CC(=O)N[C@@H](Cc2ccccc2)C(=O)N(C)c2ccc(OC)cc2)cc1 | NL4-3 |  | luciferase |  | 1.94 µM
COCCOc1ccc(-c2cnc(C)c([C@H](OC(C)(C)C)C(=O)O)c2N2CCC(C)(C)CC2)nc1 | NL4-3 |  | luminescence |  | 0.0114 µM
CC(C)C1=C2C3CCC4[C@@]5(C)CC[C@H](OC(=O)CC(C)(C)C(=O)O)C(C)(C)C5CC[C@@]4(C)[C@]3(C)CC[C@@]2(NC(=O)N2CCC(F)(F)CC2)CC1=O | IIIB |  | RT activity | 30% human serum | <0.199 µM
COc1ccc(N(C)C(=O)[C@H](Cc2cc(F)cc(F)c2)NC(=O)Cn2c(=O)n(CC(=O)N[C@@H](Cc3cc(F)cc(F)c3)C(=O)N(C)c3ccc(OC)cc3)c3cc(Cl)ccc32)cc1 | NL4-3 |  | luciferase |  | 0.04 µM
CC(C)C1=C2C3CCC4[C@@]5(C)CC[C@H](OC(=O)CC(C)(C)C(=O)O)C(C)(C)C5CC[C@@]4(C)[C@]3(C)CC[C@@]2(NC(=O)N2CCC(F)(F)C2)CC1=O | IIIB |  | RT activity | 30% human serum | <0.199 µM
CC(C)C1=C2[C@H]3CC[C@@H]4[C@@]5(C)CC[C@H](OC(=O)[C@H]6C[C@@H](C(=O)O)C6(C)C)C(C)(C)[C@@H]5CC[C@@]4(C)[C@]3(C)CC[C@@]2(CCNCC(C)(C)NC(=O)c2ccc(F)cc2)CC1=O | 92HT599 |  | p24 / ELISA |  | <1 µM
Cc1ccncc1C(=O)N[C@@]12CC[C@]3(C)[C@H](CC[C@@H]4[C@@]5(C)CC[C@H](OC(=O)CC(C)(C)C(=O)O)C(C)(C)[C@@H]5CC[C@]43C)C1=C(C(C)C)C(=O)C2 | IIIB |  | RT activity | 30% human serum | <0.199 µM
Cc1ncc(-c2ccc(OCCOC3CCC3)cn2)c(N2CCC(C)(C)CC2)c1[C@H](OC(C)(C)C)C(=O)O | NL4-3 |  | luminescence |  | 0.0012 µM
CC(C)C1=C2C3CCC4[C@@]5(C)CC[C@H](OC(=O)CC(C)(C)C(=O)O)C(C)(C)C5CC[C@@]4(C)[C@]3(C)CC[C@@]2(NC(=O)OCC2(N)CC2)CC1=O | IIIB |  | RT activity | 30% human serum | <0.199 µM
Cc1ncc(-c2ncc(NCCOc3ccccc3)c(N)n2)c(N2CCC(C)(C)CC2)c1[C@H](OC(C)(C)C)C(=O)O | NL4-3 |  | luminescence |  | 0.02 µM
COc1ccc(N(C)C(=O)[C@H](Cc2cc(F)cc(F)c2)NC(=O)Cn2c(=O)c3ccccc3n(CC(=O)N[C@@H](Cc3cc(F)cc(F)c3)C(=O)N(C)c3ccc(OC)cc3)c2=O)cc1 | NL4-3 |  | luciferase |  | 0.03 µM
CC(C)C1=C2[C@H]3CC[C@@H]4[C@@]5(C)CC[C@H](OC(=O)[C@H]6C[C@@H](C(=O)O)C6(C)C)C(C)(C)[C@@H]5CC[C@@]4(C)[C@]3(C)CC[C@@]2(CCNCCN2CCOCC2)CC1=O | 92HT599 |  | p24 / ELISA |  | <1 µM
C[C@H](Cn1cnc2c(N)ncnc21)OCP(=O)(O)O | Clinical isolate | K65R/Y181C/G190S | recombinant virus assay |  | 0.006 µM
CC(C)C1=C2[C@H]3CC[C@@H]4[C@@]5(C)CC[C@H](OC(=O)[C@H]6C[C@@H](C(=O)O)C6(C)C)C(C)(C)[C@@H]5CC[C@@]4(C)[C@]3(C)CC[C@@]2(CCNCC(C)(NC(=O)c2ccc(Cl)cc2)C(C)O)CC1=O | 92HT599 |  | p24 / ELISA |  | <1 µM
CC(C)C1=C2[C@H]3CC[C@@H]4[C@@]5(C)CC[C@H](OC(=O)CC(C)(C)C(=O)O)C(C)(C)[C@@H]5CC[C@@]4(C)[C@]3(C)CC[C@@]2(NC(=O)c2cnccn2)CC1=O | IIIB |  | RT activity | 30% human serum | <0.199 µM
Cc1ncc(-c2cnc(OCCOC(C)C)c(F)c2)c(N2CCC(C)(C)CC2)c1[C@H](OC(C)(C)C)C(=O)O | NL4-3 |  | luminescence |  | 0.0007 µM
CC(C)C1=C2C3CCC4[C@@]5(C)CC[C@H](OC(=O)CC(C)(C)C(=O)O)C(C)(C)C5CC[C@@]4(C)[C@]3(C)CC[C@@]2(NC(=O)[C@@H]2CCCN2C(=O)OC(C)(C)C)CC1=O | IIIB |  | RT activity | 30% human serum | <0.199 µM
CC(C)C1=C2[C@H]3CC[C@@H]4[C@@]5(C)CC[C@H](OC(=O)[C@H]6C[C@@H](C(=O)O)C6(C)C)C(C)(C)[C@@H]5CC[C@@]4(C)[C@]3(C)CC[C@@]2(CCNCC(C)(C)NC(=O)c2nc3ccccc3[nH]2)CC1=O | 92HT599 |  | p24 / ELISA |  | <1 µM
CC(C)C1=C2[C@H]3CC[C@@H]4[C@@]5(C)CC[C@H](OC(=O)CC(C)(C)C(=O)O)C(C)(C)[C@@H]5CC[C@@]4(C)[C@]3(C)CC[C@@]2(NC(=O)C2CCCN2C)CC1=O | IIIB |  | RT activity | 30% human serum | <0.199 µM
Cc1ncc(-c2cnc(OCC3(C)CCC3)c(F)c2)c(N2CCC(C)(C)CC2)c1[C@H](OC(C)(C)C)C(=O)O | NL4-3 |  | luminescence |  | 0.0085 µM
CC(C)C1=C2[C@H]3CC[C@@H]4[C@@]5(C)CC[C@H](OC(=O)[C@H]6C[C@@H](C(=O)O)C6(C)C)C(C)(C)[C@@H]5CC[C@@]4(C)[C@]3(C)CC[C@@]2(CC(=O)NCCN2CCS(=O)(=O)CC2)CC1=O | 92HT599 |  | p24 / ELISA |  | <1 µM
COc1ccc(N(C)C(=O)[C@H](Cc2ccccc2)NC(=O)CCCCC(=O)N[C@@H](Cc2ccccc2)C(=O)N(C)c2ccc(OC)cc2)cc1 | NL4-3 |  | luciferase |  | 1.16 µM
CC(C)C1=C2[C@H]3CC[C@@H]4[C@@]5(C)CC[C@H](OC(=O)CC(C)(C)C(=O)O)C(C)(C)[C@@H]5CC[C@@]4(C)[C@]3(C)CC[C@@]2(NC(=O)NCc2nccn2C)CC1=O | IIIB |  | RT activity | 30% human serum | <0.199 µM
CC(C)C1=C2[C@H]3CC[C@@H]4[C@@]5(C)CC[C@H](OC(=O)[C@H]6C[C@@H](C(=O)O)C6(C)C)C(C)(C)[C@@H]5CC[C@@]4(C)[C@]3(C)CC[C@@]2([C@@H](O)CNCC(C)(CN)NC(=O)c2ccc(Cl)cc2)CC1=O | 92HT599 |  | p24 / ELISA |  | <1 µM
Nc1nc(NC2CC2)c2ncn([C@H]3C=C[C@@H](CO)C3)c2n1 | Clinical isolate | M41L/D67N/K70R/K103N/L210W/T215F/K219Q | recombinant virus assay |  | 0.4136 µM
Cc1cc(C(=O)NCC[C@@]23CC[C@]4(C)[C@H](CC[C@@H]5[C@@]6(C)CC[C@H](OC(=O)[C@H]7C[C@@H](C(=O)O)C7(C)C)C(C)(C)[C@@H]6CC[C@]54C)C2=C(C(C)C)C(=O)C3)c(C)o1 | 92HT599 |  | p24 / ELISA |  | <1 µM
CC(C)C1=C2[C@H]3CC[C@@H]4[C@@]5(C)CC[C@H](OC(=O)CC(C)(C)C(=O)O)C(C)(C)[C@@H]5CC[C@@]4(C)[C@]3(C)CC[C@@]2(NC(=O)Nc2ccncn2)CC1=O | IIIB |  | RT activity | 30% human serum | <0.199 µM

A second listing of 4 rows from above:

CC(C)C1=C2[C@H]3CC[C@@H]4[C@@]5(C)CC[C@H](OC(=O)[C@H]6C[C@@H](C(=O)O)C6(C)C)C(C)(C)[C@@H]5CC[C@@]4(C)[C@]3(C)CC[C@@]2(CCNCC(C)(NC(=O)c2ccc(Cl)cc2)C(C)O)CC1=O ; strain or isolate: 92HT599 ; read by: p24 / ELISA ; value: <1 µM
CC(C)C1=C2[C@H]3CC[C@@H]4[C@@]5(C)CC[C@H](OC(=O)[C@H]6C[C@@H](C(=O)O)C6(C)C)C(C)(C)[C@@H]5CC[C@@]4(C)[C@]3(C)CC[C@@]2(CCNCC(C)(C)NC(=O)c2ccc(F)cc2)CC1=O ; strain or isolate: 92HT599 ; read by: p24 / ELISA ; value: <1 µM
Nc1nc(NC2CC2)c2ncn([C@H]3C=C[C@@H](CO)C3)c2n1 ; strain or isolate: Clinical isolate ; changes: M41L/D67N/K70R/K103N/L210W/T215F/K219Q ; read by: recombinant virus assay ; value: 0.4136 µM
CC(C)C1=C2[C@H]3CC[C@@H]4[C@@]5(C)CC[C@H](OC(=O)CC(C)(C)C(=O)O)C(C)(C)[C@@H]5CC[C@@]4(C)[C@]3(C)CC[C@@]2(NC(=O)NCc2nccn2C)CC1=O ; strain or isolate: IIIB ; read by: RT activity ; conditions: 30% human serum ; value: <0.199 µM